Assay results: paper PMC11109429
Construct, isoform or probe ends are uncertain for at least one entry.

Target: ComE D58E (phosphomimetic) (Streptococcus pneumoniae D39) (UniProt Q79CK7)
Test: DNase I footprinting
Details: recombinant protein; protein details: His6 (C-ter per strain table); label: 5' FAM; probe letters rebuilt from the primers and the genome

“TAATTCCCAATAAAATCAGCTCTTTACTAGACAACCCCTTCAGCTTTTCAATAAAGCCTATTGATTTCAAAATGAATCCTTTCTCTCCAAATCTGCTGATTCAGATAATAGTAAGCTATCCTATATTGTACCACTTTTTTAGCAATTTGAAAACAAAGGAAACGTTTTCCAAAATAAAAACCCTATTTTATCCACCATATCAAGGCT (double strand) [PtacL footprinting probe]”: binds.
